Changes are numbered by the printed parent chain. Names and notes keep the numbering of the source.
B1: GST-Ku70_1–250, P12956 I72A (protein)
chain: MSGWESYYKTEGDEEAEEEQEENLEASGDYKYSGRDSLIFLVDASKAMFESQSEDELTPFDMSIQCIQSVYASKIISSDRDLLAVVFYGTEKDKNSVNFKNIYVLQELDNPGAKRILELDQFKGQQGQKRFQDMMGHGSDYSLSEVLWVCANLFSDVQFKMSHKRIMLFTNEDNPHGNDSAKASRARTKAGDLRDTGIFLDLMHLKKPGGFDISLFYRDIISIAEDEDLRVHFEESSKLEDLLRKVRAKE
B2: GST-Ku70_1–250, P12956 I76A (protein)
chain: B1 chain with A72I, I76A
B3: GST-Ku70_1–250, P12956 S73A (protein)
chain: B1 chain with A72I, S73A

These binders were tested against HIV-1 integrase carrying N-terminal His6-tag (assay: GST pull-down, quantified Western blot). Details: chain shown with the change; HIV-1 integrase 100 nM; parent: est. 0.38; read off a plot.

First: B1
Second: B2
The response (relative IN bound to Ku70) of the first is lower: 0.02 for the first, 0.07 for the second.

Work on B3 yielded a response (relative IN bound to Ku70) of 0.05.

Same assay, conditions: chain shown with the change; HIV-1 integrase 200 nM; parent: est. 1.0; read off a plot

Compared with B1, B2 is lower in response (relative IN bound to Ku70): 0.14 for the first, 0.09 for the second.

Work on B3 yielded a response (relative IN bound to Ku70) of 0.03.

Source: publication PMC8951179
